The test has as its target HLA-A1101 (human). Briefly: competition vs 125I probe peptide, purified HLA-A*1101. The settings on record: remark: other sources report otherwise.

A word on the Ki: it is the equilibrium dissociation constant of an inhibitor or competing ligand from its target. RVLEDGVNY (modifications not checked) […]: the Ki is 893 nM.

These data come from patent publication US20060093617A1.
